These results are taken from US7517998B2, “Non nucleoside reverse transcriptase inhibitors” (priority 2004, dated 2009).

The assay deals with K103NNY181C mutant reverse transcriptase (Human immunodeficiency virus type 1 group M subtype B, UniProt P04585, K690N/Y768C). Kind of assay: Reverse transcriptase enzymatic assay (PicoGreen), K103N/Y181C mutant RT. To be noted: read-out: IC50 mut, enzymatic assay of Example 24. The format is biochemical, HIV-1.

The match of structure and compound is tentative.

On to `Cc1ccc(-n2nnnc2SCC(=O)Nc2ccc(-c3ccc(O)cc3)cc2Cl)c(Cl)c1`, for which the IC50 – broadly, the concentration that inhibits the measured activity by half – stood at 29 nM. The figure for `O=C(O)Cc1ccc(-c2ccc(NC(=O)CSc3nnnn3-c3cc4c(cc3Cl)CCC4)c(Cl)c2)cc1` is 16 nM. As to `O=C(CSc1nnnn1-c1ccc(C(F)(F)F)cc1Cl)Nc1ccc(-c2ccc(OCCN3CCCCC3)cc2)cc1Cl`, the half-maximal inhibitory concentration (IC50) is 359 nM. With `O=C(O)Cc1ccc(-c2ccc(NC(=O)CSc3nnnn3-c3cc4ccccc4cc3Cl)c(Cl)c2)cc1`, the half-maximal inhibitory concentration (IC50) was 16 nM. The same measure for `CC(C)c1cc(Cl)c(-n2nnnc2SCC(=O)Nc2ccc(-c3ccc(CC(=O)O)cc3)cc2Cl)c(C(F)(F)F)c1`: 49 nM; for `COc1ccc(-c2ccc(NC(=O)CSc3nnnn3-c3ccc(C)cc3Cl)c(Cl)c2)cc1`: 78 nM. The same measure for `Cc1ccc(-n2nnnc2SCC(=O)Nc2ccc(-c3ccc(S(N)(=O)=O)cc3)cc2[N+](=O)[O-])c(Cl)c1`: 69 nM.
